Source: patent publication EP4678648A1, “SYNTHESIS METHOD OF ANTIBODY-DRUG CONJUGATES USING PROXIMITY EFFECT-BASED SITE-SELECTIVE ANTIBODY LABELING” (Sogang University Research Business Development Foundation, priority 2023, dated 2024)

System: antibodies with Fc domains (trastuzumab)
Test: SPR binding affinity of Z-M protein variants and antibody (His capture, CM5 chip)
Conditions: 1:1 (Langmuir) fit

## Z-M_K33AzK-PyOx
SPR association rate
  Ka: 196600 M⁻¹ s⁻¹
SPR dissociation rate
  Kd: 0.0006843 s⁻¹
